Anti-infective test results gathered from many reports (values: NIAID ChemDB through PubChem).

All rows: growth or infection tests; organism: HIV-1; method: luciferase; endpoint: EC50

Rows are shuffled and stem from different studies.

structure | cell line | mutations | strain or isolate | conditions | value
Nc1nc2c(c(F)cn2C[C@@H](CF)OCP(=O)(O)O)c(=O)[nH]1 | PBMC |  | BaL |  | >100 µM
N#Cc1cc2[nH]c3ccccc3c2n(-c2ccc([N+](=O)[O-])cc2)c1=O | HeLa | RT-M41L A62V S68N G112S V118I M184V | Recombinant |  | 6.14 µM
CC(C)=CCOc1c2occc2cc2ccc(=O)oc12 | MT-2 |  | NL4-3 Recombinant VSV-pseudotyped |  | <25 µM
CC[C@H](C)[C@H]1NC(=O)[C@@H](NC(=O)[C@@H](C)NC)[C@@H](C)OC(=O)[C@H](Cc2ccc(OC)cc2)N(C)C(=O)[C@@H]2CCCN2C(=O)[C@H](CC(C)C)NC(=O)[C@@H](C)C(=O)[C@H](C(C)C)OC(=O)C[C@@H]1O | PBMC |  | NL4-3 |  | 10.27 µM
COc1cc2c(OC3O[C@H](C)[C@@H](O)[C@H](OC(=O)C(Cl)(Cl)Cl)[C@H]3O)c3c(c(-c4ccc5c(c4)OCO5)c2cc1OC)C(=O)OC3 | 293T |  | NL4-3 | pseudotyped | >0.5078 µM
Cc1ccnc2c1NC(=O)c1cccnc1N2C1CC1 | ACH2 + TZM-bl |  | SF162 |  | 0.02814 µM
Cc1cccc(C)c1OCC(=O)N[C@@H](Cc1ccccc1)[C@@H](O)C[C@H](Cc1ccccc1)NC(=O)[C@H](C(C)C)N1CCCNC1=O | HEK 293 + 293T |  | NL4-3 |  | 0.007 µM
Cc1ccc2nc(-c3ccc(NCCOCCOCCOCCOCCOCCO)cc3)sc2c1 | CEM-M7 |  | ADA |  | 6.6 µg/mL
CC[C@H](C)[C@H]1NC(=O)[C@@H](NC(=O)[C@@H](C)N(C)C(=O)OCc2ccccc2)[C@@H](C)OC(=O)[C@H](Cc2ccc(OC)cc2)N(C)C(=O)[C@@H]2CCCN2C(=O)[C@H](CC(C)C)NC(=O)[C@@H](C)C(=O)[C@H](C(C)C)OC(=O)C[C@@H]1O | MT-2 |  | NL4-3 |  | 0.23 µM
Cc1ncc(-c2ccc(F)c(F)c2)c(N2CCC(C)(C)CC2)c1[C@H](OC(C)(C)C)C(=O)O | MT-2 |  | NL4-3 |  | 0.007 µM
Cc1cc(C)nc(N2C(=O)CSC2c2c(Cl)cccc2[N+](=O)[O-])c1 | TZM-bl |  | N119 |  | 0.65 µg/mL
Cc1nc(NC(=O)C2CCC3(CC2)CC3)c(C)c(-c2ccc(Cl)cc2)c1[C@H](OC(C)(C)C)C(=O)O | C8166 |  | NL4-3 |  | 15 nM
Cc1ccc(C2(CCl)OC(=O)c3ccccc32)cc1 | TZM-bl |  | IIIB |  | 47.6 µM
NC(=S)N/N=C(\c1ccccc1)c1ccccn1 | CEM | (delta)vpr | VSV-G-pseudotyped NL4-3 |  | 0.0016 µM
C=C(C)[C@@H]1CC[C@]2(NCC[C@]3(O)CCC[C@H](S(C)(=O)=O)C3)CC[C@]3(C)[C@H](CC[C@@H]4[C@@]5(C)CC=C(C6=CC[C@](CF)(C(=O)O)CC6)C(C)(C)[C@@H]5CC[C@]43C)[C@@H]12 | MT-2 |  | NL4-3 |  | <0.05 µM
COc1ccc(-c2c3c(cc4cc(OC)c(OC)cc24)CN(CC(C)C)C3)cc1OC | U87 (CD4+ CCR5+) + U87 |  | CONB/pNL43E-Luc+ |  | 0.01 µg/mL
C/C=C(/C)C(=O)O[C@@H]1/C(C)=C/[C@@]23O[C@@]2(C[C@H](C)[C@@H]3OC(C)=O)C(=O)[C@H](C)[C@@H](OC(C)=O)[C@@H]2[C@H]([C@@H]1OC)C2(C)C | MT-4 |  | NL4-3 |  | >20 µM
CCC(Cl)C1(c2ccc(F)cc2)OC(=O)c2c(Br)c(Br)c(Br)c(Br)c21 | TZM-bl |  | IIIB |  | 126 µM
C#CNc1c2c(c(-c3ccc4c(c3)OCO4)c3cc(OC)c(OC)cc13)C(=O)OC2 | 293T |  | NL4-3 | pseudotyped | 0.0188 µM
Cc1nc2ccccc2c(-c2ccc3c(c2Cl)NCCO3)c1[C@H](OC(C)(C)C)C(=O)O |  |  |  |  | 8.4 µM
O=C1OC(C(Cl)c2ccccc2F)c2ccccc21 | TZM-bl |  | IIIB |  | 2 µM
Cc1ccc(Nc2nc(C)c([C@H](OC(C)(C)C)C(=O)O)c(N3CCC(C)(C)CC3)c2-c2ccc(OCCc3ccc(F)cc3)cc2)cn1 | MT-2 |  | NL4-3 |  | 0.005 µM
CCC(Cl)C1(c2ccc(F)cc2)OC(=O)c2ccc(C)cc21 | TZM-bl |  | IIIB |  | 126 µM
C=C(C)[C@]12C[C@@H](C)[C@@]34OC5(CCCCCCC[C@H](C)[C@H]6[C@H](C)[C@H](OC(=O)c7ccccc7)[C@@](O)([C@H](O)[C@@]7(CO)O[C@H]7[C@H]3[C@H]1O5)[C@@H]64)O2 | MT-4 |  | NL4-3 |  | 0.00044 µM
Cc1cn([C@H]2C[C@H](N=[N+]=[N-])[C@@H](CO)O2)c(=O)[nH]c1=O | Jurkat cells |  | NL4-3-Luc VSV pseudotyped |  | <10 µM
Nc1nc2c(ccn2C[C@H](CF)OCP(=O)(O)O)c(=O)[nH]1 | PBMC |  | NL4-3 |  | >100 µM
Cc1nc(C(=O)N[C@@H](C)C2CCCCC2)c(C)c(-c2ccc(Cl)cc2)c1[C@H](OC(C)(C)C)C(=O)O | C8166 |  | NL4-3 |  | 6.9 nM
C[C@]1(CO)O[C@@H](n2cnc3c(N)nc(F)nc32)C[C@@H]1O | HOS |  |  |  | 0.063 µM
C[C@H](Cn1cnc2c(N)ncnc21)OCP(=O)(O)O | TZM-bl | X4 | NL4-3 |  | 7.1 µM
COc1cnc(-n2cnc(CO)n2)c2[nH]cc(C(=O)C(=O)N3CCc4c(cccc4-c4ccccn4)C3)c12 | HeLa |  |  |  | <0.1 µM
CC(C)=CCc1c(O)c(C(=O)C(C)C)c(O)c2c(-c3ccccc3)cc(=O)oc12 | Jurkat cells |  | NL4-3 Recombinant |  | >1.25 µM
Cn1c(C(OC(C)(C)C)C(=O)O)c(-c2cccc(F)c2F)c2ccccc2c1=O | MT-4 |  |  |  | 2.55 µM
O=C1CCCN1CCCN1CC(=O)N2CC(N(CCOc3ccccc3)S(=O)(=O)c3cccc(F)c3)C[C@H]2C1=O | TZM-bl |  | PLAI-JRFL PID2-26B |  | 2.22 µM
COC(C)(C)CCc1cc(=O)n(-c2ccc(Cl)c3c(NS(C)(=O)=O)nn(C)c23)c([C@H](Cc2cc(F)cc(F)c2)NC(=O)Cn2nc(C(F)F)c3c2C(F)(F)[C@@H]2C[C@H]32)n1 | MT-2 |  | NL4-3 |  | 0.00007 µM
COc1ccc(-c2c3c(cc4cc(OC)c(OC)cc24)CN(C(C)C)C3)cc1OC | U87 (CD4+ CCR5+) + U87 |  | CONB/pNL43E-Luc+ |  | 1.07 µg/mL
Cc1ccnc2c1NC(=O)c1cccnc1N2C1CC1 | TZM-bl |  | N119 |  | 0.22 µg/mL
Cc1nc2ccccc2n1C1C[C@H]2CC[C@@H](C1)N2CCC(C)(CN(C)S(=O)(=O)c1ccccc1)c1ccccc1 | HOS-CD4-CCR5 |  |  |  | <0.01 µM
CO[C@H]1CCCC[C@@H](c2ccccc2)OC(=O)C(C)[C@@]2(O)OC([C@@H](C)[C@H](O)[C@H]2OC)[C@@H](C)/C=C/[C@H]1OC | PBMC |  | LAI |  | 0.38 µM
OC[C@H]1O[C@@H](n2cnc3cc(Cl)c(Cl)cc32)[C@H](O)[C@@H]1O | MT-2 |  | NL4-3 Recombinant VSV-pseudotyped |  | <50 µM
OCCc1ccc(O)c(O)c1 | TZM-bl |  | BaL |  | 53.9 µM
O=C1OC(C(Cl)c2ccccc2)c2ccccc21 | TZM-bl |  | IIIB |  | 30.9 µM
O=P(O)(O)Cc1cc2c(O)c(c1)Sc1cc(CP(=O)(O)O)cc(c1O)Sc1cc(CP(=O)(O)O)cc(c1O)Sc1cc(CP(=O)(O)O)cc(c1O)S2 | TZM-bl + MT-2 | integrase inhibitor resistance mutation |  |  | 2.3 µM
C=CCOC(=O)O[C@@H]1COC(Oc2c3c(c(-c4ccc5c(c4)OCO5)c4cc(OC)c(OC)cc24)C(=O)OC3)[C@H](OC(=O)OCC=C)[C@H]1OC(=O)N(C)C | 293T |  | NL4-3 | pseudotyped | >0.1453 µM
NC[C@H]1O[C@H](O[C@H]2[C@H](O)[C@@H](O)[C@H](N)C[C@@H]2N)[C@H](N)[C@@H](O)[C@@H]1O | CEM |  | S1 |  | >5 µM
O=C1O[C@@](CCl)(c2ccc(F)cc2)c2ccccc21 | TZM-bl |  | IIIB |  | 1.7 µM
C=C(C)[C@@H]1CC[C@]2(NCCN3C[C@@H]4C[C@@H]3CO4)CC[C@]3(C)[C@H](CC[C@@H]4[C@@]5(C)CC=C(c6ccc(C(=O)O)cc6)C(C)(C)[C@@H]5CC[C@]43C)[C@@H]12 | MT-2 |  | NL4-3 |  | <0.1 µM
O=C1OC(C(Cl)c2ccccc2Br)c2ccccc21 | TZM-bl |  | IIIB |  | 0.6 µM
S=C(N/N=C(/c1ccccc1)c1ccccn1)Nc1ccccc1 | CEM | (delta)vpr | VSV-G-pseudotyped NL4-3 |  | 0.34 µM
CC1(C)C(=O)CC[C@]2(C)C1CC[C@@]13C[C@@H](CCC12)[C@](O)(CO)C3 | MT-4 |  | NL4-3 |  | >20 µM
CCCCC/C=C\C/C=C\C/C=C\C/C=C\CCCC(=O)NCCc1ccc(O)c(O)c1 | PBMC |  | NL4-3-Luc VSV pseudotyped |  | <1 µM
Cc1nc(C(=O)N[C@@H](C)C(C)(C)C)c(C)c(-c2ccc3c(c2)SCCO3)c1[C@H](OC(C)(C)C)C(=O)O | C8166 |  | NL4-3 |  | 1.7 nM
Nc1nc2c(ccn2C[C@@H](CF)OCP(=O)(O)O)c(=O)[nH]1 | TZM-bl |  | BaL |  | >100 µM
CC[C@H](C)[C@H]1NC(=O)[C@@H](NC(=O)[C@@H](CC(C)C)N(C)C(=O)c2cc3ccccc3s2)[C@@H](C)OC(=O)[C@H](Cc2ccc(OC)cc2)N(C)C(=O)[C@@H]2CCCN2C(=O)[C@H](CC(C)C)NC(=O)[C@H](C(C)C)OC(=O)C[C@@H]1O | PBMC | Delta-env-VSV-Luc | NL4-3 |  | 0.008 µM
Nc1ccn([C@@]23C[C@@H]2[C@@H](CO)CO3)c(=O)n1 | HOS |  |  |  | 440 µM
Cc1cc(C#N)cc(C)c1Oc1nc(Nc2ccc(C#N)cc2)nc(N)c1Br | HEK293T |  | 94ug 114.1.6 D (WT) |  | 0.00247 µM
[N-]=[N+]=N[C@]1(CO)O[C@@H]([n+]2ccc(N)[nH]c2=O)[C@@H](F)[C@@H]1O | MT-2 |  | NL4-3 |  | 0.3 nM
CCCCC/C=C\C/C=C\C/C=C\C/C=C\CCCCOC(CO)CO | Jurkat cells |  | NL4-3-Luc VSV pseudotyped |  | >10 µM
CCOC(=O)c1[nH]c2ccc(Cl)cc2c1CC#N | 293T |  |  |  | 19.8 µM
COC[C@@H](c1ccc(C(F)(F)F)cc1)N1CCN(C2(C)CCN(C(=O)c3c(C)ncnc3C)CC2)C[C@@H]1C | PBMC | G516V M518V F519I |  |  | 0.00019 µM
O=C1O[C@](CCl)(c2ccc(F)cc2)c2ccccc21 | TZM-bl |  | IIIB |  | 13.5 µM
C=C(C)[C@@H]1CC[C@]2(NCCN3C[C@H]4C[C@H]3CS4(=O)=O)CC[C@]3(C)[C@H](CC[C@@H]4[C@@]5(C)CC=C(C6=CC7C(C6)C7C(=O)O)C(C)(C)[C@@H]5CC[C@]43C)[C@@H]12 | MT-2 |  | NL4-3 |  | <0.1 µM
Cc1ncc(-c2ccccc2F)c(N2CCC(C)(C)CC2)c1[C@H](OC(C)(C)C)C(=O)O | MT-2 |  | NL4-3 |  | 0.01 µM
N#Cc1cn(C[C@@H](CF)OCP(=O)(O)O)c2nc(N)[nH]c(=O)c12 | TZM-bl |  | NL4-3 |  | >100 µM
C=C(C)[C@H]1[C@@H]2OC3(CCCCCCCCC)O[C@@H]2[C@@H]2[C@@H]4O[C@]4(CO)[C@@H](O)[C@]4(O)C(=O)C(C)=C[C@H]4[C@@]2(O3)[C@@H]1C | MT-4 |  | NL4-3 |  | 0.00069 µM
N#Cc1cn(C[C@H](CF)OCP(=O)(O)O)c2nc(N)[nH]c(=O)c12 | PBMC |  | BaL |  | >100 µM
C=CCOC(=O)O[C@@H]1COC(Oc2c3c(c(-c4ccc5c(c4)OCO5)c4cc(OC)c(OC)cc24)C(=O)OC3)[C@H](O)[C@H]1OC(C)=O | 293T |  | NL4-3 | pseudotyped | >0.5127 µM
Cc1cn([C@H]2C[C@H](N=[N+]=[N-])[C@@H](CO)O2)c(=O)[nH]c1=O | ACH2 + TZM-bl |  | NL4-3 |  | 0.00134 µM
COc1cc2c(OC3O[C@H](C)[C@@H](O)[C@H](OC(=O)C4CC4)[C@H]3O)c3c(c(-c4ccc5c(c4)OCO5)c2cc1OC)C(=O)OC3 | 293T |  | NL4-3 | pseudotyped | >0.0267 µM
CC(C)OC(=O)OCOP(=O)(CO[C@H](C)Cn1cnc2c(N)ncnc21)OCOC(=O)OC(C)C | PBMC |  | BaL |  | 0.068 µM
Cn1c2ccccc2c2c1cc(C#N)c(=O)n2-c1ccc([N+](=O)[O-])cc1 | HeLa | RT-K103N P225H | NNRTI-resistant |  | 0.0046 µM
C=C(C)[C@]12C[C@@H](COC(=O)c3ccccc3)[C@@]34OC5(O[C@@H]1C3[C@@H]1O[C@]1(CO)[C@@H](O)[C@@]1(O)C4C([C@H](C)CCCCCC[C@H]5O)[C@H](C)[C@@H]1OC(=O)c1ccccc1)O2 | MT-4 |  | NL4-3 |  | >0.00013 µM

5 of the rows above, restated:

structure,cell line,mutations,strain or isolate,conditions,value
Cc1nc(NC(=O)C2CCC3(CC2)CC3)c(C)c(-c2ccc(Cl)cc2)c1[C@H](OC(C)(C)C)C(=O)O,C8166,,NL4-3,,15 nM
Cc1ccnc2c1NC(=O)c1cccnc1N2C1CC1,ACH2 + TZM-bl,,SF162,,0.02814 µM
C[C@]1(CO)O[C@@H](n2cnc3c(N)nc(F)nc32)C[C@@H]1O,HOS,,,,0.063 µM
Cc1nc(C(=O)N[C@@H](C)C2CCCCC2)c(C)c(-c2ccc(Cl)cc2)c1[C@H](OC(C)(C)C)C(=O)O,C8166,,NL4-3,,6.9 nM
Cc1cn([C@H]2C[C@H](N=[N+]=[N-])[C@@H](CO)O2)c(=O)[nH]c1=O,ACH2 + TZM-bl,,NL4-3,,0.00134 µM

Blank or dashed fields: not listed here. ECn: concentration that inhibits the pathogen or its effect by n%.